Source: paper PMC12455930, “LEF-6 phosphorylation regulates the binding and trafficking of baculovirus late gene transcripts”
For at least one entry, the source does not settle the construct or the ends of the probe.

Legend:
[1] = molecular target: LEF-6 (phosphorylated, insect cell) (UniProt S5G646); experiment: EMSA; conditions: EMSA: 10 mM Tris pH 7.5, 20 mM KCl, 1 mM MgCl2, 1 mM DTT, 20 uM RNA, 22 C; recombinant protein; residues 1-173; protein details: His
[2] = molecular target: LEF-6 (phosphorylated, insect cell) (UniProt S5G646); experiment: fluorescence anisotropy; conditions: Anisotropy: 20 mM Tris-HCl pH 7.5, 20 mM NaCl, 5 nM FAM-ssRNA, 28 C; recombinant protein; residues 1-173; protein details: His

CGGUUUGCCCGCUCAAUUGACCGAUCU [p10 ssRNA]: binds [1]; binds [2].

“GACAGGUCGCCGAAGUUACAGAACACG [p6.9 ssRNA]”: binds [1]; binds [2].
